Target: SARSCoV2 M^pro-His6 (Severe acute respiratory syndrome coronavirus 2, UniProt P0DTD1)
Test: biochemical

CCCC[C@H](NC(=O)[C@@H]1[C@@H]2[C@H](CN1C(=O)[C@@H](NC(=O)NC1(CS(=O)(=O)C(C)(C)C)CCCCC1)C(C)(C)C)C2(C)C)C(=O)C(=O)NC1CC1 [narlaprevir]
IC50: > 20 µM

— paper doi:10.1101/2020.09.15.275891v2 (biorxiv, 2020)
